Measurements published in article PMC9289529, “Varicella‐Zoster virus ORF9 is an antagonist of the DNA sensor cGAS”.
For some assays here: A weaker result is weaker than the reference pair of the same experiment. Where a protein sequence is shown, tags need not be part of it. For some assays here: The exact form of at least one protein or probe is not confirmed. For some assays here: Results from cells or extracts need not show a direct contact.

Experiments:
[1] = biological target: T1, ORF9-N (Varicella-zoster virus) (UniProt Q4JQW6); assay: phase separation microscopy; conditions: no cGAS, much reduced droplets; recombinant protein; residues 1-244; protein details: 6xHis-SUMO removed by SENP2
T1 sequence (looked up): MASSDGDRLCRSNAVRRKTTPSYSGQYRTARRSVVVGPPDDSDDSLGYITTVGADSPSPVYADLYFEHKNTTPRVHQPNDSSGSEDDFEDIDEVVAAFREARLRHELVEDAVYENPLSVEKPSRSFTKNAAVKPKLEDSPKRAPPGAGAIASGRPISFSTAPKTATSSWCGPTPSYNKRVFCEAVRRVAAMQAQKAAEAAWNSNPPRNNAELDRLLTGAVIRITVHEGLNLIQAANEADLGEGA

[2] = biological target: T2, ORF9 (FLAG-ORF9), HEK293T (Varicella-zoster virus) (UniProt Q4JQW6); assay: pull-down; conditions: HEK293T lysate; 3' TEG-biotin on forward strand; Binding buffers for pull-down; phase separation tested at varied NaCl/KCl up to 300 mM or more; protein in a lysate after overexpression; residues 1-302; protein details: N-terminal FLAG; label: biotin
T2 sequence (looked up): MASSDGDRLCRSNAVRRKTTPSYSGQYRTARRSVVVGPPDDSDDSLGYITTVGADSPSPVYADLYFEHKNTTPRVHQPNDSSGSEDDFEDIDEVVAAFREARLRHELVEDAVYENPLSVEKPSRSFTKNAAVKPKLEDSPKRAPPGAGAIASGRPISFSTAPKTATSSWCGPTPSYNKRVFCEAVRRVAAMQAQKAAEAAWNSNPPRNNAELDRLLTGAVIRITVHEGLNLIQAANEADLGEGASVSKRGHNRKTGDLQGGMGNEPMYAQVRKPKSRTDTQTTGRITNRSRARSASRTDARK

Sequence | binding result [1] | binding result [2]
ACATCTAGTACATGTCTAGTCAGTATCTAGTGATTATCTAGACATACATCTAGTACATGTCTAGTCAGTATCTAGTGATTATCTAGACATGGACTCATCC (double strand) [100 bp ISD] | binds more weakly | 
CCATCAGAAAGAGGTTTAATATTTTTGTGAGACCATCGAAGAGAGAAAGAGATAAAACTTTTTTACGACT (double strand) [VACV-70mer-Biotin] |  | binds
